System: Salmonella typhimurium 14028S
Assay: Relative MIC of crude preparations of recombinant peptides
Assay type: cell-based
Conditions: for Activity against gram-negative bacteria compared with indolicidin-R: MIC assay; for Gram-negative activity relative to indolicidin: from MICs of crude preparations of recombinant peptides
Description: Expression and purification of various cationic peptides has previously been described (Hancock et al., U.S. Ser. No. 08/575,052, incorporated herein by reference, and Gene, 134 (1993) 7-13). In order to recombinantly express various antimicrobial peptides described below, oligonucleotides representing both strands of DNA encoding the various peptides were synthesized on an Applied Biosystems 392 DNA/RNA synthesizer using conventional methods. After annealing of the strands of DNA, the resulting DNA fragments were cloned into the Staphyloccus aereus expression vector pRIT5. Following transformation of the various clones into E. Coli DH5α, the recombinant plasmids were purified and sequenced and then electroporated (Bio Rad Gene Pulser Transfection Apparatus) into S. aereus K147.

Row | Sequence | Activity against gram-negative bacteria compared with indolicidin-R | Gram-negative activity relative to indolicidin [X]
1 | ILPWKWPPWPPWPWRR [CP-pM2b] | increased activity | 1.5
2 | ILKKWPWWPWRR [CP-4R] |  | 0.5
3 | ILPWKWPWWPWWKKPWRR [CP-pM5] |  | 0.5
4 | ILPWKWFFPPWPWRR [CP-pM1b] |  | 0.2
5 | ILPWKWPWRR [CP-pM] |  | 0.2
6 | ILKPWKWPWWPWRR [CP-1R] |  | 0.5
7 | ILPWKWPWWPWWPWRR [CP-pM2a] | increased activity | 1.5

— patent publication US7390873B2, “Antimicrobial cationic peptides” (University of British Columbia, priority 1995, dated 2008)
